Source: publication PMC9866728, “Dosing Methods to Enable Cell-Based In Vitro Testing of Complex Substances: A Case Study with a PAH Mixture” (Toxics, 2022)

Experiment: Protein binding: media-dissolved fraction (FMD) and unbound fraction (FUB) in cell culture media without cells (ultracentrifugation, GC-MS/MS)

Question: Which “ISTD Resp. Ratio, stock” value (0.375 ug/mL DMSO extract, 1 hr exposure block, stock reference samples STOCK_R1-R3, raw GC-MS/MS response ratio to ISTD) does the source give for `c1ccc2ccccc2c1` [Naphthalene] here?
Answer: 8.133 and 7.988 and 8.011

Question: And the “ISTD Resp. Ratio (Raw Data for FMD)” value (0.375 ug/mL DMSO extract, 1 hr exposure, media-dissolved fraction, replicates DMSO_FMD_R1-R4, raw GC-MS/MS response ratio to ISTD)?
Answer: 0.9269 and 0.818 and 0.8426 and 0.8495

Question: What about the “ISTD Resp. Ratio (Raw Data for FUB)” value (0.375 ug/mL DMSO extract, 1 hr exposure, unbound fraction, replicates DMSO_FUB_R1-R4, raw GC-MS/MS response ratio to ISTD) of the same compound?
Answer: 0.08415 and 0.08288 and 0.08584 and 0.0813

Question: And the “ISTD Resp. Ratio, stock” value (0.375 ug/mL DMSO extract, 24 hr exposure block, stock samples STOCK_R1-R3, GC-MS/MS area ratio to ISTD)?
Answer: 7.98 and 7.9837 and 7.945

Question: And the “ISTD Resp. Ratio (Raw Data for FMD)” value (0.375 ug/mL DMSO extract, 24 hr exposure, media-dissolved fraction samples, replicates DMSO_FMD_R2-R4, GC-MS/MS area ratio to ISTD)?
Answer: 0.3662 and 0.358 and 0.3311

Question: What about the “ISTD Resp. Ratio (Raw Data for FMD)” value (0.375 ug/mL DMSO extract, 24 hr exposure, media-dissolved fraction, replicate DMSO_FMD_R1, raw GC-MS/MS response ratio to ISTD) of the same compound?
Answer: 0.3564

Question: And the “ISTD Resp. Ratio (Raw Data for FUB)” value (0.375 ug/mL DMSO extract, 24 hr exposure, unbound fraction samples, replicates DMSO_FUB_R1-R4, GC-MS/MS area ratio to ISTD)?
Answer: 0.003002 and 0.001979 and 0.002153 and 0.002289

Question: What about the “ISTD Resp. Ratio (raw data for FMD)” value (10 ug/mL MAF (MAF_1H_FMD), 1 hour exposure, replicates R1-R3) of the same compound?
Answer: 11.5368 and 10.6183 and 12.391

Question: And the “ISTD Resp. Ratio (raw data for FUB)” value (10 ug/mL MAF (MAF_1H_FUB), 1 hour exposure, replicates R1-R3)?
Answer: 1.688 and 1.9128 and 1.817

Question: And the “ISTD Resp. Ratio, Raw Data for FMD (media-dissolved fraction)” value (10 ug/mL MAF, 24 hour exposure, samples MAF_24H_FMD_R1-R3 (replicates), raw GC-MS/MS analyte/ISTD response ratio)?
Answer: 3.124 and 3.299 and 3.208

Question: And the “ISTD Resp. Ratio, Raw Data for FUB (unbound fraction)” value (10 ug/mL MAF, 24 hour exposure, samples MAF_24H_FUB_R1-R3 (replicates), raw GC-MS/MS analyte/ISTD response ratio)?
Answer: 0.491 and 0.4462 and 0.6985

Question: And the “ISTD Resp. Ratio (Raw Data for FMD)” value (10 ug/mL micro-O-Rings, 1 hour exposure, media-dissolved fraction samples, replicates ORINGS_1H_FMD_R1-R3, GC-MS/MS area ratio to ISTD)?
Answer: 0.006236 and 0.01602 and 0.1099

Question: And the “ISTD Resp. Ratio (Raw Data for FUB)” value (10 ug/mL micro-O-Rings, 1 hour exposure, unbound fraction samples, replicates ORINGS_1H_FUB_R1-R3, GC-MS/MS area ratio to ISTD)?
Answer: 0.001735 and 0.001255 and 0.08302

Question: What about the “ISTD Resp. Ratio (Raw Data for FMD)” value (10 ug/mL micro-O-Rings, 24 hour exposure, media-dissolved fraction samples, replicate ORINGS_24H_FMD_R1, GC-MS/MS area ratio to ISTD) of the same compound?
Answer: 0.005629

Question: What about the “ISTD Resp. Ratio (raw data for FMD)” value (O-rings (ORINGS_24H_FMD), 24 hour exposure, media without cells, GC-MS/MS analyte/ISTD response ratio, replicates R2-R3) of the same compound?
Answer: 0.1109 and 0.07326

Question: What about the “ISTD Resp. Ratio (raw data for FUB)” value (O-rings (ORINGS_24H_FUB), 24 hour exposure, media without cells, GC-MS/MS analyte/ISTD response ratio, replicates R1-R3) of the same compound?
Answer: 0.001391 and 0.001433 and 0.001313

Question: And the “ISTD Resp. Ratio, stock” value (STOCK_10_R1-R3 (replicates) of the block 10 ug/mL MAF, 24 hr exposure, raw GC-MS/MS analyte/ISTD response ratio)?
Answer: 129.443 and 129.454 and 131.226

Question: What about the “ISTD Resp. Ratio (STOCK_10)” value (STOCK_10 reference samples of the O-rings section, replicates R1-R3) of the same compound?
Answer: 100.74 and 103.988 and 107.809

Where “and” joins values, the source holds several entries; their conditions need not be identical. Equal entries are not always repeated.
